The structures appear in SMILES notation.

This test has as its target Human immunodeficiency virus type 1 integrase (Human immunodeficiency virus 1) (UniProt Q7ZJM1). In words: Percentage inhibition of compound against 3'-processing of HIV-1 integrase at 100 ug/mL.
As usually defined, the inhibition is the drop in the measured response relative to a control, in per cent. As for `O=C(O)C(CSSCC(Nc1ccc([N+](=O)[O-])cc1[N+](=O)[O-])C(=O)O)Nc1ccc([N+](=O)[O-])cc1[N+](=O)[O-]` (stereo not given), the inhibition is 86.7%. As for `O=[N+]([O-])c1cc(Cc2cc([N+](=O)[O-])c(O)c([N+](=O)[O-])c2)cc([N+](=O)[O-])c1O`, the inhibition was determined as 92.7%.

For `O=C(c1ccc(O)cc1O)c1c([N+](=O)[O-])cc([N+](=O)[O-])cc1[N+](=O)[O-]`, the inhibition is 93.5%.

Regarding `O=[N+]([O-])c1cc(-c2cc([N+](=O)[O-])c(O)c([N+](=O)[O-])c2)cc([N+](=O)[O-])c1O`, the inhibition is 92.6%. In the case of `O=[N+]([O-])c1c(Cl)c(O)c(Cl)c([N+](=O)[O-])c1Nc1c([N+](=O)[O-])c(Cl)c(O)c(Cl)c1[N+](=O)[O-]`, the inhibition worked out at 94.7%.

(Values after ChEMBL document CHEMBL1129975, “Depsides and depsidones as inhibitors of HIV-1 integrase: discovery of novel inhibitors through 3D database searching” (J Med Chem, 1997).)
